Pooled drug test results. Numbers come from NIAID ChemDB, via PubChem.

Shared fields: cytotoxicity tests; cells: VERO; read-out: CC50

CCn is the concentration with n% toxicity to the cells. Neighbouring rows are from separate reports.

| smiles | value |
|---|---|
| NC(=O)c1cn(-c2ccc(F)cc2F)c2cc(-c3ccncc3)ccc2c1=O | >3.1 µg/mL |
| Cl.Cl.Cl.FC(F)(F)c1ccc2c(c1)N(CCCN1CCN(CCN3CCCCC3)CC1)c1ccccc1S2 | 2.02 µg/mL |
| Cc1ccc(-n2cc(C(N)=O)c(=O)c3ccc(-c4ccncc4)cc32)cc1C | >100 µg/mL |
| O=[N+]([O-])c1c(Cl)cccc1-c1c[nH]cc1Cl | 8 µg/mL |
| CCn1cc(C(N)=O)c(=O)c2ccc(N3CCN(C)CC3)cc21 | >50 µg/mL |
| CC(C)C(=O)NC1N=C(c2ccccc2)c2cc(Cl)ccc2NC1=O | 3 µM |
| O=C(N/N=C/c1ccc([N+](=O)[O-])s1)c1ccncc1 | 3.6 µg/mL |
| O=C1Nc2ccccc2C(c2ccccc2)=NC1NCc1ccccc1[N+](=O)[O-] | 20 µM |
| Cc1cn(CC2C=CC(CS[As](C)C)O2)c(=O)[nH]c1=O | 3.69 µg/mL |
| COc1ccc(-c2c[nH]cc2[N+](=O)[O-])c(Cl)c1 | 2 µg/mL |
| NC(=O)c1csc2cc(-c3ccncc3)ccc2c1=O | >100 µg/mL |
| O=C(Cc1ccc([N+](=O)[O-])cc1)NC1N=C(c2ccccc2)c2ccccc2NC1=O | 1 µM |
| CCn1cc(C(=O)NOC)c(=O)c2ccc(-c3ccncc3)cc21 | >25 µg/mL |
| Cc1occc1C(=S)Nc1ccc(Cl)c(/C=N/OC(C)C)c1 | 6.9 µg/mL |
| CCCC(=O)NC1N=C(c2ccccc2)c2ccccc2NC1=O | 5 µM |
| CCOC(=O)c1c[nH]cc1-c1ccc(Cl)cc1 | 4 µg/mL |
| Cc1cc2cccnc2c2ncccc12 | <2.05 µg/mL |
| NC(=O)c1cn(C2CC2)c2cc(-c3ccncc3)ccc2c1=O | >25 µg/mL |
| O=C(NC(=O)C1N=C(c2ccccc2)c2ccccc2NC1=O)c1ccsc1 | 2 µM |
| OC(c1cc(C(F)(F)F)nc2c(Cl)cc(Cl)cc12)C1CCCCN1 | 34.2 µg/mL |
| CC(C)(C)c1ccc(-n2cc(C(N)=O)c(=O)c3ccc(-c4ccncc4)cc32)cc1 | >25 µg/mL |
| O=C(NC(=O)N1CCCCC1)C1N=C(c2ccccc2)c2ccccc2NC1=O | 2 µM |
| N=C1C=C(N)C(=O)c2ccccc21 | 2.6 µg/mL |
| NC(=O)c1cn(-c2ccc(Cl)c(Cl)c2)c2cc(-c3ccncc3)ccc2c1=O | >100 µg/mL |
| Cc1ccc(/C=N/NC(=O)c2ccncc2)cc1 | >62.5 µg/mL |
| CCn1cc(C(=O)NO)c(=O)c2ccc(-c3ccncc3)cc21 | >25 µg/mL |
| CN1CCN(CCCN2c3ccccc3Sc3ccc(C(F)(F)F)cc32)CC1 | 13.6 µg/mL |
| O=C(NC1N=C(c2ccccc2)c2ccccc2NC1=O)c1ccccc1[N+](=O)[O-] | 2 µM |
| O=[N+]([O-])c1oc2ccc3ccccc3c2c1CCO | 1.75 µg/mL |
| CCOC(=O)c1cn(Cc2ccccc2)cc1-c1ccc(OC)cc1 | 8 µg/mL |

For reference, 4 entries again:

smiles | value
NC(=O)c1cn(-c2ccc(Cl)c(Cl)c2)c2cc(-c3ccncc3)ccc2c1=O | >100 µg/mL
O=C(N/N=C/c1ccc([N+](=O)[O-])s1)c1ccncc1 | 3.6 µg/mL
COc1ccc(-c2c[nH]cc2[N+](=O)[O-])c(Cl)c1 | 2 µg/mL
CCn1cc(C(=O)NOC)c(=O)c2ccc(-c3ccncc3)cc21 | >25 µg/mL